Compound potency records, mixed from different reports. Data source: NIAID ChemDB in PubChem.

Shared fields: host cell toxicity; cells: HepG2.2.15; read-out: CC50

CCn is the concentration with n% toxicity to the cells. An empty or dashed field is not shown. Lines come from different laboratories, so protocols vary.

structure,read by,result
CSc1ncc(C(=O)NCCO)c(Nc2ccc3cn[nH]c3c2)n1,MTT,>100 µg/mL
C=C(C)[C@H](CC)CC[C@@H](C)C1CCC2C3CC=C4C[C@@H](OC5OC(CO)C(O)C(O)C5O)CC[C@]4(C)C3CC[C@@]21C,MTT,77.9 µM
COC(=O)[C@]12C3=C([C@H](C)O[C@H]1[C@@H]1C4=C(C(=O)OCC4=C[C@@]45C6=C(C(=O)OCC6)[C@@H](C[C@@H]14)OC5C)[C@H]2O)[C@@H](O)OCC3,MTT,>830 µM
C[C@@]12C(=O)NC(=O)[C@]1(C)C1CCC2O1,MTT,0.0389 µM
C[C@]1(CO)O[C@@H](n2cnc3c(=O)[nH]c(N)nc32)[C@H](O)[C@@H]1O,,>100 µM
CCOCC(=O)O[C@@H](C[C@@H](C)[C@]12CC[C@@]3(C)[C@@]1(C[C@H](OC(=O)COCC)[C@H]1[C@@]4(C)CCC(=O)C(C)(C)[C@@H]4CC[C@@]13C)O2)[C@@H](OC(=O)COCC)C(C)(C)OC(=O)COCC,,>1400 µM
OCCc1c(N2CCOCC2)nc2ccc(Cl)cc2c1-c1ccccc1Cl,,>1592 µM
CCOCC1=C(C(=O)OCC)C(c2ccc(F)cc2Br)N=C(c2ncccc2F)N1,,>12 µM
CCC(=O)O[C@H]1CC[C@]2(C)[C@H]3C(=O)C=C4[C@@H]5C[C@@](C)(C(=O)O)CC[C@]5(C)CC[C@@]4(C)[C@]3(C)CC[C@H]2C1(C)C,,99.58 µM
CCC(O)CC1=C(C(=O)OC)C(c2ccc(F)cc2Cl)N=C(c2ncc(F)cc2F)N1,,44 µM
CC1O[C@@H]2C[C@H]3[C@H]4C5=C(C(=O)OCC5=C[C@]13C1=C2C(=O)OCC1)[C@@H](O)[C@]12C(=O)OCCC1=C(C=O)[C@@H](C)O[C@H]42,MTT,>1360 µM
C=C(C)[C@H](OC(=O)COCC)[C@H](C[C@@H](C)C1=C2C[C@H](OC(=O)COCC)[C@H]3[C@@]4(C)CCC(=O)C(C)(C)[C@@H]4CC[C@]3(C)[C@@]2(C)CC1)OC(=O)COCC,,>1200 µM
C[C@H]1C(O)CCC2[C@]3(C)CC[C@@]4(C)C5CC(C)(C)CC[C@]5(C)CC[C@]4(C)C3CC[C@@]21C,MTT,329.2 µM
CC(=O)O[C@H]1C[C@H]2[C@]3(C)C(=O)C[C@]4(C)C([C@@](C)(O)C(=O)CCC(C)(C)OC(C)=O)[C@H](OC(C)=O)C[C@@]4(C)[C@@H]3C[C@@H](O)[C@@]2(OC(=O)c2cccc(Cl)c2)C(C)(C)[C@@H]1OC(C)=O,,>1050 µM
CC1(C)[C@@H](O)CC[C@]2(C)[C@H]3CC=C4[C@@H]5C[C@@](C)(C(=O)O)CC[C@]5(C)CC[C@@]4(C)[C@]3(C)CC[C@@H]12,,162 µM
CCC(=O)O[C@H]1C[C@@H]2C(=CC[C@@H]3[C@@]2(C)C(=O)C[C@]2(C)C([C@@](C)(O)C(=O)CCC(C)(C)OC(C)=O)[C@H](O)C[C@@]32C)C(C)(C)[C@@H]1OC(=O)CC,,>596.4 µM
CCOC(=O)C1=C(CN2CCCCC2)NC(c2c(F)cc(F)cc2F)=NC1c1ccc(F)cc1Cl,MTT,25.21 µM
CC(=O)O[C@@H]1[C@@H](O)C[C@@H]2C(=CC[C@@H]3[C@@]2(C)C(=O)C[C@]2(C)C([C@@](C)(O)C(=O)CCC(C)(C)OC(C)=O)[C@H](O)C[C@@]32C)C1(C)C,,253.5 µM
OCCc1c(OCc2c(Cl)cccc2Cl)nc2ccc(Cl)cc2c1-c1ccccc1Cl,,38.5 µM
CCOC(=O)C1=C(CN2CCOCC2)NC(c2c(F)cc(F)cc2F)=NC1c1ccc(F)cc1Cl,MTT,33.75 µM
C[C@@H]1O[C@@H](O[C@@H]2C3O[C@@H](c4ccc(O)c(O)c4)COC3O[C@H](CO)[C@H]2O)[C@H](O)[C@H](O)[C@H]1O,MTT,>2000 µM
CCOC(=O)C1=C(CN2CC(F)(F)[C@@H]3[C@H]2CON3C[C@@H](O)C(C)(C)C(=O)O)NC(c2nccs2)=N[C@H]1c1cccc(F)c1C,WST / absorbance,88.7 µM
C[C@H]1OC(=O)[C@@H](O)CC2[C@]3(C)CC[C@@]45C(=O)O[C@@H](C[C@@]6(C)CC[C@](C)(CO)CC64)[C@]5(C)C3CC[C@@]21C,MTT,392.5 µM
CCCCCCCC(=O)O[C@@H](C[C@@H](C)C1=C2C[C@H](OC(=O)CCCCCCC)[C@H]3[C@@]4(C)CCC(=O)C(C)(C)[C@@H]4CC[C@]3(C)[C@@]2(C)CC1)[C@@H](OC(=O)CCCCCCC)C(C)(C)O,,>600 µM
N#CCCC1C(=O)c2ccc(-c3ccc(F)c(F)c3)cc2OC12CCCC2,,3 µM
C/C=C(/C)C(=O)Oc1c2c(cc3c1-c1c(cc(OC)c(OC)c1OC)C[C@](C)(O)[C@@H](C)C3)OCO2,MTT,102 µg/mL
CCOCC1=C(C(=O)OC)[C@H](c2ccc(F)cc2Cl)N=C(c2ncc(F)cc2F)N1,,>25 µM
C/C=C(/C)C(=O)Oc1c(OC)c(OC)cc2c1-c1c(cc(OC)c(OC)c1OC)C[C@H](C)[C@H](C)C2,MTT,>1000 µg/mL
CC(=O)SCCOP(=O)(OCCOCn1cnc2c(=O)[nH]c(N)nc21)OCCSC(C)=O,,987 µM
CCOC(=O)C1=C(CN2CC(F)(F)[C@@H]3[C@H]2CON3CC(CC(C)(C)C(=O)O)OC)NC(c2nccs2)=N[C@H]1c1cccc(F)c1C,WST / absorbance,50 µM
Cc1cn([C@H]2OC(C)(CO)[C@H](O)[C@@H]2O)c(=O)[nH]c1=O,,>100 µM
COc1cccc(/C=C/C(=O)O[C@H]2CC[C@]3(C)[C@H]4CC=C5[C@@H]6C[C@@](C)(C(=O)OCc7ccc(Br)cc7F)CC[C@]6(C)CC[C@@]5(C)[C@]4(C)CC[C@H]3C2(C)C)c1,,>1000 µM
C[C@]1(CO)O[C@@H](n2cc(F)c(N)nc2=O)[C@H](O)[C@@H]1O,,>100 µM
CCC(=O)O[C@@H]1[C@@H](O)C[C@@H]2C(=CC[C@@H]3[C@@]2(C)C(=O)C[C@]2(C)C([C@@](C)(O)C(=O)CCC(C)(C)OC(C)=O)[C@H](O)C[C@@]32C)C1(C)C,,100.3 µM
CCOC(=O)C1=C(CN2CC(F)(F)[C@H]3[C@@H]2CCN3C[C@@H](F)C(C)(C)C(=O)O)NC(c2nc(C)cs2)=N[C@H]1c1cccc(F)c1Cl,WST / absorbance,29.8 µM
OCCc1c(N2CCNCC2)nc2ccc(Cl)cc2c1-c1ccccc1Cl,,<5 µM
CNC(=O)c1cnc(SC)nc1Nc1ccc2[nH]ncc2c1,MTT,>100 µg/mL
C/C=C(/C)C(=O)Oc1c(OC)c(OC)cc2c1-c1c(cc3c(c1OC)OCO3)C[C@H](C)[C@@](C)(O)C2,MTT,26.48 µM
CC(C)c1cc2c(c(O)c1O)C[C@@]1(O)CCCC(C)(C)C1CC2,MTT,2140 µM
C=C(C)[C@@H](CC)CC[C@@H](C)[C@H]1CCC2C3C[C@@H](O)[C@@]4(O)C[C@@H](O)CC[C@]4(C)C3CC[C@@]21C,MTT,17.1 µM
C=C(C)[C@H](OC(=O)CCCC)[C@H](C[C@@H](C)C1=C2C[C@H](OC(=O)CCCC)[C@H]3[C@@]4(C)CCC(=O)C(C)(C)[C@@H]4CC[C@]3(C)[C@@]2(C)CC1)OC(=O)CCCC,,>920 µM
CC1(C)[C@@H](OC(=O)c2cc(=O)c3ccccc3o2)CC[C@]2(C)[C@H]3CC=C4[C@@H]5C[C@@](C)(C(=O)OCc6ccc(C(F)(F)F)cc6)CC[C@]5(C)CC[C@@]4(C)[C@]3(C)CC[C@@H]12,,>1170 µM
C=C(C)[C@H](CC)CC[C@@H](C)C1CCC2C3CC=C4C[C@@H](O)CC[C@]4(C)C3CC[C@@]21C,MTT,113.8 µM